From patent US11672846B2, “Soluble bacterial and fungal proteins and methods and uses thereof in inhibiting and dispersing biofilm” (priority 2014, dated 2023)

B1: PelA47-303: soluble PelA hydrolase domain, residues 47-303, P. aeruginosa PAO1, SEQ ID NO: 12 (protein, listed as Pseudomonas aeruginosa)
chain: GGPSSVAFWYAERPPLAELSQFDWVVLEAAHLKPADVGYLKEQGSTPFAYLSVGEFDGDAAAIADSGLARGKSAVRNQAWNSQVMDLAAPSWRAHLLKRAAELRKQGYAGLFLDTLDSFQLQAEERREGQRRALASFLAQLHRQEPGLKLFFNRGFEVLPELPGVASAVAVESIHAGWDAAAGQYREVPQDDRDWLKGHLDALRAQGMPIVAIDYLPPERRDEARALAARLRSEGYVPFVSTPALDYLGVSDVEVQP
B2: PslG31-442: soluble PslG glycosyl hydrolase construct, residues 31-442, P. aeruginosa PAO1, SEQ ID NO: 11 (protein, listed as Pseudomonas aeruginosa)
chain: EIQVLKAPRAVVWKDFLGVNAQFLWFSPERYNKQIDRLQDLGLEWVRLDLHWDRLETAEDQYQLASLDQLVKDLEARQLKSVFYLVGSARFITTAPFYSPFQDQYPPRDPEVFARRMAMLSQRYPSVAAWQVWNEPNLIGFWRPKADPEGYAKLLQASTIALRMVDPEKPVVSAGMAFFSEMPDGRTMFDALGHLGVESLGTIATYHPYTQLPEGNYPWNLDFVSHANQINRALRNAGVPAIWSTEWGWSAYKGPKELQDIIGVEGQADYVLRRLALMSALDYDRIFLFTLSDLDQRASVRDRDYGLLDLDANPKPVYLALQRFLKVTGPKLRPADPPVTEDLPDGSFSIGWTREDGRNVWLFWSARGGNVRLPKLKEATLHDPLSGKVTPLSGSDGLEVPVKSSLQMLVWE

Tested on: P. aeruginosa Psl or Pel arabinose inducible cultures
Assay: Biofilm prevention by enzyme pre-coated on polystyrene or glass

Molecule | biofilm in polystyrene wells pre-coated with protein (40 μg/mL coating, crystal violet) | duration of biofilm prevention on covalently linked glass (covalent attachment to glass)
B1 | completely abrogated biofilm | –
B2 | – | at least 8 days
